According to patent publication US11357857B2, “Excipient compounds for protein processing” (COMERA LIFE SCIENCES, INC., priority 2014, dated 2022):

Test system: bovine gamma globulin (BGG)
Test: Viscosity of 280 mg/mL BGG formulations in 50 mM histidine HCl pH 6 with excipient, cone and plate viscometer (Examples 1, 2, 4-6)
Type: physicochemical

## OCCN(CCO)CCO
Excipient 38 mg/mL
  Viscosity: 57 cP
  Viscosity Reduction: 28%
Excipient 97 mg/mL
  Viscosity: 51 cP
  Viscosity Reduction: 35%
